Pooled drug test results. Numbers come from NIAID ChemDB, via PubChem.

Common to all: toxicity to cultured cells; cells: JM; endpoint: CC50

CCn is the concentration with n% toxicity to the cells.

SMILES	method	value
Nc1ccn([C@H]2CC[C@@H](CO)O2)c(=O)n1	-	7 µM
COC(=O)c1ccc(COP(=O)(OCc2ccc(C(=O)OC)cc2)OC[C@H]2O[C@@H](n3cc(C)c(=O)[nH]c3=O)C[C@@H]2N=[N+]=[N-])cc1	MTT	150 µM
COc1ccc(Cc2nccc3cc(OC)c(OC)cc23)cc1OC	MTT	2 µg/mL
Cc1cn([C@H]2C[C@H](N=[N+]=[N-])[C@@H](COP(=O)(Oc3ccc([N+](=O)[O-])cc3)Oc3ccc([N+](=O)[O-])cc3)O2)c(=O)[nH]c1=O	-	20 µM
Cc1cn([C@H]2C[C@H](N=[N+]=[N-])[C@@H](COP(=O)(O)OCc3ccc(C(=O)OC(C)C)cc3)O2)c(=O)[nH]c1=O	MTT	10 µM
CC(C)(C)OC(=O)[C@@H]1CCCN1C[C@@H](O)[C@H](Cc1ccccc1)NC(=O)[C@H](CC(N)=O)NC(=O)OCc1ccccc1	MTT	250 µg/mL
Cc1cn([C@H]2C[C@H](N=[N+]=[N-])[C@@H](COP(=O)(OCc3ccc(C(=O)OC(C)(C)C)cc3)OCc3ccc(C(=O)OC(C)(C)C)cc3)O2)c(=O)[nH]c1=O	MTT	150 µM
Cc1cn([C@H]2C[C@H](N=[N+]=[N-])[C@@H](CO)O2)c(=O)[nH]c1=O	-	>1000 µM
Cc1cn([C@H]2C[C@H](N=[N+]=[N-])[C@@H](COP(=O)(Oc3ccc([N+](=O)[O-])cc3)Oc3ccc([N+](=O)[O-])cc3)O2)c(=O)[nH]c1=O	-	20 µM
Nc1ccn([C@H]2CC[C@@H](CO)O2)c(=O)n1	MTT	0.5 µg/mL
COC(=O)[C@H](C)NP(=O)(OC[C@H]1O[C@@H](n2cc(C)c(=O)[nH]c2=O)C[C@@H]1N=[N+]=[N-])OCC(Cl)(Cl)Cl	-	50 µM
Cc1cn([C@H]2C[C@H](N=[N+]=[N-])[C@@H](COP(=O)(O)OCc3ccc(C(=O)OC(C)(C)C)cc3)O2)c(=O)[nH]c1=O	MTT	10 µM
Cc1cn([C@H]2C[C@H](N=[N+]=[N-])[C@@H](COP(=O)(Oc3ccc(C(F)(F)F)cc3)Oc3ccc(C(F)(F)F)cc3)O2)c(=O)[nH]c1=O	-	100 µM
CCOP(=O)(N[C@@H](C)C(=O)OC)OC[C@H]1O[C@@H](n2cc(C)c(=O)[nH]c2=O)C[C@@H]1N=[N+]=[N-]	-	200 µM
Cc1cn([C@H]2C[C@H](N=[N+]=[N-])[C@@H](COP(=O)(O)O)O2)c(=O)[nH]c1=O	MTT	100 µM
O[C@H]1[C@H](O)[C@@H](O)CN2CC[C@H](O)[C@H]12	MTT	1000 µg/mL
Nc1ncnc2c1ncn2[C@H]1CC[C@@H](CO)O1	-	>1000 µM
CCCC(=O)O[C@H]1CN2CC[C@H](O)[C@@H]2[C@@H](O)[C@@H]1O	-	965 µM
CC(C)(C)NC(=O)[C@@H]1C[C@@H]2CCCC[C@@H]2CN1C[C@@H](O)[C@H](Cc1ccccc1)NC(=O)[C@H](CC(N)=O)NC(=O)c1ccc2ccccc2n1	-	>10 µM

For reference, 2 entries again:

Cc1cn([C@H]2C[C@H](N=[N+]=[N-])[C@@H](COP(=O)(OCc3ccc(C(=O)OC(C)(C)C)cc3)OCc3ccc(C(=O)OC(C)(C)C)cc3)O2)c(=O)[nH]c1=O ; method: MTT ; value: 150 µM
Cc1cn([C@H]2C[C@H](N=[N+]=[N-])[C@@H](COP(=O)(Oc3ccc([N+](=O)[O-])cc3)Oc3ccc([N+](=O)[O-])cc3)O2)c(=O)[nH]c1=O ; value: 20 µM

Conditions beyond the fields shown may differ between rows. Blank or dashed fields: not listed here.